A mixed list of measured activities; the numbers were collected in NIAID ChemDB.

Shared fields: enzyme or target tests

Neighbouring rows are from separate reports. An empty or dashed field is not shown. ICn: concentration for n% inhibition. a–b is a range or a potency band. Fold resistance: result on the changed form divided by that on wild type. Percent inhibition refers to the dose given; in toxicity tests it is the harm to the cells.

SMILES | strain | organism | protein | read-out | read by | changes | tested at | value
Nc1nc2c(ncn2[C@H]2CC[C@@H](COP(=O)(O)OP(=O)(O)NP(=O)(O)OP(=O)(O)OC[C@H]3O[C@@H](n4cnc5c(N)ncnc54)[C@H](O)[C@@H]3O)O2)c(=O)[nH]1 | - | HIV | Reverse transcriptase | IC50 | nucleotide incorporation / radiometric | RT-M41L T215Y | - | >37 µM
O=C(/C=C/c1cccn1Cc1ccc(F)cc1)CC(=O)C(=O)O | - | HIV-1 | RNase H | IC50 | substrate cleavage / fluorescence | R557A | - | 45 µM
CN(C)C(=NCCCCCC(C)(C)CN(C[C@@H](O)[C@H](Cc1ccccc1)NC(=O)O[C@H]1CO[C@H]2OCC[C@H]21)S(=O)(=O)c1ccc2c(c1)OCO2)NC#N | - | HIV-1 | Protease | Ki | fluorescence | - | - | <0.001 µM
CC(C)[C@H](N)C(=O)N[C@H](C(=O)N[C@@H](Cc1ccccc1)[C@H](O)C(=O)N[C@H](Cc1ccccc1)C(=O)N[C@@H](C(=O)N[C@@H](C(N)=O)C(C)C)C(C)C)C(C)C | - | HIV-1 | Protease | IC50 | - | - | - | ~1000 µM
Nc1nc2c(ncn2[C@H]2CO[C@@H](COP(=O)(O)OP(=O)(O)OP(=O)(O)O)O2)c(=O)[nH]1 | - | HIV | Reverse transcriptase | fold resistance | radiometric | RT-D67N K70R T215Y K219Q | - | 1.2
Nc1ccn([C@H]2CC[C@@H](COP(=O)(O)OP(=O)(O)OP(=O)(O)O)O2)c(=O)n1 | - | HIV | Reverse transcriptase | Ki | - | RT-T215Y | - | 17 µM
CC(C)(CCCCCNC(=O)O[C@@H]1CCOC1)CN(C[C@@H](O)[C@H](Cc1ccccc1)NC(=O)O[C@H]1CO[C@H]2OCC[C@H]21)S(=O)(=O)c1ccc2c(c1)OCO2 | - | HIV-1 | Protease | Ki | fluorescence | - | - | <0.001 µM
Nc1ncnc2c1ccn2[C@H]1C[C@H](F)[C@@H](COP(=O)(O)OP(=O)(O)OP(=O)(O)O)O1 | - | HIV | Reverse transcriptase | fold resistance | nucleotide incorporation / radiometric | RT-D67N K70R T215Y K219Q | - | 1.45
CN1CCn2c(nc(C(=O)NCc3ccc(F)cc3)c(O)c2=O)C(NCC2CCCCC2)C1 | - | HIV-1 | Integrase | IC50 | ELISA | - | - | <10 µM
CC(C)(CCCCNC(=O)c1ccc2c(c1)OCO2)CN(C[C@@H](O)[C@H](Cc1ccccc1)NC(=O)O[C@H]1CO[C@H]2OCC[C@H]21)S(=O)(=O)c1ccc2c(c1)OCO2 | - | HIV-1 | Protease | Ki | fluorescence | - | - | <0.001 µM
CC(=O)N1CCn2c(nc(C(=O)NCc3ccc(F)cc3)c(O)c2=O)C1CN(C)C | - | HIV-1 | Integrase | IC50 | ELISA | - | - | <10 µM
Nc1ccc2c(c1)CN(c1nn3c(-c4cccs4)nnc3c3ccccc13)CC2 | IIIB | HIV-1 | Reverse transcriptase | IC90 | RT activity / fluorescence | - | - | 12.5 µM
CC(C)(C)NC(=O)[C@H]1C[C@@H](O)CCN1C(=O)[C@@H](O)[C@H](Cc1ccccc1)NC(=O)[C@H](CC(N)=O)NC(=O)OCc1ccccc1 | - | HIV-1 | Protease | inhibition | - | - | 5 µM | 16%
CC(C)(CCCOC(=O)N1CCOCC1)CN(C[C@@H](O)[C@H](Cc1ccccc1)NC(=O)O[C@H]1CO[C@H]2OCC[C@H]21)S(=O)(=O)c1ccc2c(c1)OCO2 | - | HIV-1 | Protease | Ki | fluorescence | - | - | <0.001 µM
Cc1ccc(Cl)cc1Nc1nc(C(F)(F)F)ccc1C(=O)NN1CCN(c2cccc(Cl)c2)CC1 | - | HIV-1 | RNase H | IC50 | RNase H / absorbance | A502F | - | 47.7 µM
Nc1nc2c(ncn2[C@H]2CC[C@@H](COP(=O)(O)OP(=O)(O)OP(=O)(O)O)O2)c(=O)[nH]1 | - | HIV | Reverse transcriptase | Ki | - | - | - | 0.028 µM
CC1(C)NCCCn2c1nc(C(=O)NCc1ccc(F)cc1)c(O)c2=O | - | HIV-1 | Integrase | IC50 | ELISA | - | - | <10 µM
Cc1cn([C@H]2CC[C@@H](COP(=O)(O)OP(=O)(O)OP(=O)(O)OP(=O)(O)OC[C@@H]3CC[C@H](n4cc(C)c(=O)[nH]c4=O)O3)O2)c(=O)[nH]c1=O | - | HIV | Reverse transcriptase | fold resistance | nucleotide incorporation / radiometric | RT-W88G | - | 4
CC(C)(C)NC(=O)[C@@H]1CCCN1C(=O)[C@@H](O)[C@H](Cc1ccccc1)NC(=O)[C@H](CC(N)=O)NC(=O)OCc1ccccc1 | - | HIV-1 | Protease | IC50 | - | - | - | <5 µM
COCCOC(=O)NCCCCCC(C)(C)CN(C[C@@H](O)[C@H](Cc1ccccc1)NC(=O)O[C@H]1CO[C@H]2OCC[C@H]21)S(=O)(=O)c1ccc2c(c1)OCO2 | - | HIV-1 | Protease | Ki | fluorescence | - | - | <0.001 µM
COc1ccc2c(c1)CN(c1nn3c(C)nnc3c3ccccc13)CC2 | IIIB | HIV-1 | Reverse transcriptase | IC50 | RT activity / fluorescence | - | - | 3.31 µM
Nc1ccn([C@H]2CC[C@@H](COP(=O)(O)OP(=O)(O)OP(=O)(O)O)O2)c(=O)n1 | - | HIV | Reverse transcriptase | IC50 | nucleotide incorporation / radiometric | RT-K65R | - | 0.44 µM
COC(=O)c1ccc2c(c1)CN(c1nn3c(C)nnc3c3ccccc13)CC2 | 98US_MSC5016 | HIV-1 | Reverse transcriptase | IC90 | RT activity / fluorescence | - | - | 1.17 µM
O=C1c2c(O)c(=O)ccn2CCN1Cc1ccc(Cl)c(Cl)c1 | - | HIV-1 | Integrase | IC50 | ELISA | - | - | <0.01 µM
CCOC(=O)C(=O)CC(=O)/C=C/c1cc(-c2ccccc2)cn1Cc1ccc(F)cc1 | - | HIV-1 | RNase H | inhibition | substrate cleavage / fluorescence | Q475A | 100 µM | 17%
CC(C)(CCCCCN=C(N)NC#N)CN(C[C@@H](O)[C@H](Cc1ccccc1)NC(=O)O[C@H]1CO[C@H]2OCC[C@H]21)S(=O)(=O)c1ccc2c(c1)OCO2 | - | HIV-1 | Protease | Ki | fluorescence | - | - | <0.001 µM
COc1ccc2c(c1)CCN(c1nn3c(C)nnc3c3ccccc13)C2 | 98US_MSC5016 | HIV-1 | Reverse transcriptase | IC90 | RT activity / fluorescence | - | - | 6.23 µM
CNc1ccccc1C(=O)O[C@H]1[C@@H](O)[C@H](n2cnc3c(N)ncnc32)O[C@@H]1COP(=O)(O)OP(=O)(O)OP(=O)(O)OP(=O)(O)OC[C@@H]1CC[C@H](n2cnc3c(=O)[nH]c(N)nc32)O1 | - | HIV | Reverse transcriptase | fold resistance | nucleotide incorporation / radiometric | RT-D67N K70R T215Y K219Q | - | 0.0526
CC(C)c1cn(Cc2cccc(Cl)c2)c(=O)c2c(O)c(=O)c(Br)cn12 | - | HIV-1 | Integrase | IC50 | ELISA | - | - | 0.01–0.1 µM
CN1CCn2c(nc(C(=O)NCc3ccc(F)cc3)c(O)c2=O)C(NCc2ccccc2)C1 | - | HIV-1 | Integrase | IC50 | ELISA | - | - | <10 µM
COc1cccc(Cn2cccc2/C=C/C(=O)CC(=O)C(=O)O)c1 | - | HIV-1 | RNase H | IC50 | substrate cleavage / fluorescence | Q475A | - | 7.4 µM
COc1ccc2c(c1)CCN(c1nn3c(C4CC4)nnc3c3ccccc13)C2 | KER2008 | HIV-1 | Reverse transcriptase | IC90 | RT activity / fluorescence | - | - | 3.19 µM
C=C(C)OC(=O)NCCC(C)(C)CN(C[C@@H](O)[C@H](Cc1ccccc1)NC(=O)O[C@H]1CO[C@H]2OCC[C@H]21)S(=O)(=O)c1ccc2c(c1)OCO2 | - | HIV-1 | Protease | Ki | fluorescence | - | - | <0.001 µM
COc1ccnc2[nH]cc(C(=O)C(=O)N3CCN(C(=O)c4ccccc4)C[C@H]3C)c12 | NL4-3 | HIV-1 | gp120 | fold resistance | ELISA | GP120-R350K M475I | - | 13
Nc1nc2c(ncn2[C@H]2CC[C@@H](COP(=O)(O)OP(=O)(O)OP(=O)(O)O)O2)c(=O)[nH]1 | - | HIV | Reverse transcriptase | fold resistance | nucleotide incorporation | RT-V60T | - | 0.6
CN(C)C(=O)NCC(=O)NCCCC(C)(C)CN(C[C@@H](O)[C@H](Cc1ccccc1)NC(=O)O[C@H]1CO[C@H]2OCC[C@H]21)S(=O)(=O)c1ccc2c(c1)OCO2 | - | HIV-1 | Protease | Ki | fluorescence | - | - | <0.001 µM
O=C(NCc1ccncc1)c1cn2ccn(Cc3cccc(Cl)c3)c(=O)c2c(O)c1=O | - | HIV-1 | Integrase | IC50 | ELISA | - | - | 0.01–0.1 µM
CNc1cccc(S(=O)(=O)N(C[C@@H](O)[C@H](Cc2ccccc2)NC(=O)O[C@H]2CO[C@H]3OCC[C@H]32)CC(C)(C)CCCCNS(C)(=O)=O)c1 | - | HIV-1 | Protease | Ki | fluorescence | - | - | <0.001 µM
CN1CCn2c(nc(C(=O)NCc3ccc(F)cc3)c(O)c2=O)C(N(C)C(=O)C(=O)N2CCCC2)C1 | - | HIV-1 | Integrase | IC50 | ELISA | - | - | <10 µM
CCNC(=O)OCCC(C)(C)CN(C[C@@H](O)[C@H](Cc1ccccc1)NC(=O)O[C@H]1CO[C@H]2OCC[C@H]21)S(=O)(=O)c1ccc2c(c1)OCO2 | - | HIV-1 | Protease | Ki | fluorescence | - | - | <0.001 µM
CCOC(=O)C(=O)CC(=O)/C=C/c1cccn1Cc1ccc(C)cc1C | - | HIV-1 | RNase H | IC50 | substrate cleavage / fluorescence | Y501A | - | >100 µM
CONC(=O)OCCCCC(C)(C)CN(C[C@@H](O)[C@H](Cc1ccccc1)NC(=O)O[C@H]1CO[C@H]2OCC[C@H]21)S(=O)(=O)c1ccc2c(c1)OCO2 | - | HIV-1 | Protease | Ki | fluorescence | - | - | <0.001 µM
Cc1ccc(Cl)cc1Nc1nc(C(F)(F)F)ccc1C(=O)NN1CCN(c2ccc(F)cc2)CC1 | - | HIV-1 | RNase H | IC50 | RNase H / absorbance | - | - | >100 µM
CC(C)(CCCCNC(=O)NC(C)(C)C)CN(C[C@@H](O)[C@H](Cc1ccccc1)NC(=O)O[C@H]1CO[C@H]2OCC[C@H]21)S(=O)(=O)c1ccc2c(c1)OCO2 | - | HIV-1 | Protease | Ki | fluorescence | - | - | <0.001 µM
CN(C)CC(=O)N1CCn2c(nc(C(=O)NCc3ccc(F)cc3)c(O)c2=O)C1(C)C | - | HIV-1 | Integrase | IC50 | ELISA | - | - | <10 µM
CC(C)(CCCCCNC(=O)c1ccccc1)CN(C[C@@H](O)[C@H](Cc1ccccc1)NC(=O)O[C@H]1CO[C@H]2OCC[C@H]21)S(=O)(=O)c1ccc2c(c1)OCO2 | - | HIV-1 | Protease | Ki | fluorescence | - | - | <0.001 µM
CC[C@@H](C)[C@H](NC(=O)[C@@H]1CCCN1C(=O)[C@@H](O)[C@H](Cc1ccccc1)NC(=O)[C@H](CC(N)=O)NC(=O)c1ccccn1)C(=O)N[C@H](C(N)=O)C(C)C | - | HIV-1 | Protease | IC50 | - | - | - | <5 µM
C#CCOC(=O)NCCCC(C)(C)CN(C[C@@H](O)[C@H](Cc1ccccc1)NC(=O)O[C@H]1CO[C@H]2OCC[C@H]21)S(=O)(=O)c1ccc2c(c1)OCO2 | - | HIV-1 | Protease | Ki | fluorescence | - | - | <0.001 µM
O=[N+]([O-])c1ccc2c(c1)CN(c1nn3c(C4CC4)nnc3c3ccccc13)CC2 | IIIB | HIV-1 | Reverse transcriptase | IC50 | RT activity / fluorescence | - | - | 5.45 µM
CC(C)NC(=O)OCCCCC(C)(C)CN(C[C@@H](O)[C@H](Cc1ccccc1)NC(=O)O[C@H]1CO[C@H]2OCC[C@H]21)S(=O)(=O)c1ccc2c(c1)OCO2 | - | HIV-1 | Protease | Ki | fluorescence | - | - | <0.001 µM
CS(=O)(=O)C[C@H](NC(=O)COc1cccc2ccccc12)C(=O)N[C@@H](Cc1ccccc1)[C@H](O)C(=O)N1CSC[C@H]1C(=O)NC(CO)c1ccccc1 | - | HIV-1 | Protease | IC50 | - | - | - | >0.05 µM
COc1ccc(S(=O)(=O)NCCC(C)(C)CN(C[C@@H](O)[C@H](Cc2ccccc2)NC(=O)O[C@H]2CO[C@H]3OCC[C@H]32)S(=O)(=O)c2ccc3c(c2)OCO3)cc1 | - | HIV-1 | Protease | Ki | fluorescence | - | - | <0.001 µM
CCCC[C@H](NC(=O)[C@H](C)NC(=O)[C@H](CCC(=O)O)NC[C@H](Cc1ccccc1)NC(=O)[C@H](CC(C)C)NC(=O)[C@@H](NC(=O)[C@@H](N)CCCN=C(N)N)C(C)C)C(N)=O | - | HIV | Protease | IC50 | HPLC | PR-N88D | - | >0.075 µM
COc1ccc(S(=O)(=O)N(C[C@@H](O)[C@H](Cc2ccccc2)NC(=O)O[C@H]2CO[C@H]3OCC[C@H]32)CC(C)(C)CCCN)cc1 | - | HIV-1 | Protease | Ki | fluorescence | - | - | <0.001 µM
O=c1ccn2ccn(Cc3ccc(Br)cc3)c(=O)c2c1O | - | HIV-1 | Integrase | IC50 | ELISA | - | - | 0.01–0.1 µM
CC(C)(CCCCNC(=S)NC(C)(C)C)CN(C[C@@H](O)[C@H](Cc1ccccc1)NC(=O)O[C@H]1CO[C@H]2OCC[C@H]21)S(=O)(=O)c1ccc2c(c1)OCO2 | - | HIV-1 | Protease | Ki | fluorescence | - | - | <0.001 µM
O=C(/C=C/c1cccn1Cc1ccccc1Cl)CC(=O)C(=O)O | - | HIV-1 | RNase H | IC50 | substrate cleavage / fluorescence | R557A | - | 63 µM
CNC(=O)NCCCCC(C)(C)CN(C[C@@H](O)[C@H](Cc1ccccc1)NC(=O)O[C@H]1CO[C@H]2OCC[C@H]21)S(=O)(=O)c1ccc2c(c1)OCO2 | - | HIV-1 | Protease | Ki | fluorescence | - | - | <0.001 µM
C=CC[C@H](NC(=O)COc1cccc2ccccc12)C(=O)N[C@@H](Cc1ccccc1)[C@H](O)C(=O)N1CSC[C@H]1C(=O)NC(C)(C)C | - | HIV-1 | Protease | inhibition | - | - | 0.05 µM | 92.7%
COC(=O)NCCCCCC(C)(C)CN(C[C@@H](O)[C@H](Cc1ccccc1)NC(=O)O[C@H]1CO[C@H]2OCC[C@H]21)S(=O)(=O)c1ccc2c(c1)OCO2 | - | HIV-1 | Protease | Ki | fluorescence | - | - | <0.001 µM
N#Cc1ccc2c(c1)CN(c1nn3c(C4CC4)nnc3c3ccccc13)CC2 | 98US_MSC5016 | HIV-1 | Reverse transcriptase | IC90 | RT activity / fluorescence | - | - | 3.55 µM